{
  "source": "paper PMC5335569",
  "key": {"[1]": {"target": "Crotoxin B (Crotalus durissus terrificus) (UniProt P62022)", "assay": "SEC"}, "[2]": {"target": "Crotoxin B (Crotalus durissus terrificus) (UniProt P62022)", "assay": "ITC"}},
  "note": "Values joined by “and” are separate entries in the source; they are usually repeats but may differ in a detail not shown here. Identical values can stand only once.",
  "data": [
    {"substance": "Crotoxin A (natural protein)", "values": [
      {"measurement": "stoichiometry N (molar ratio CB/CA)", "setting": "[1]", "result": "1.04 and 0.96 and 1.01"},
      {"measurement": "Kd, event 2 (assigned by the paper to formation of the CTX heterodimer)", "setting": "[2]", "result": 160, "unit": "nM"},
      {"measurement": "dH, event 2 (assigned by the paper to formation of the CTX heterodimer)", "setting": "[2]", "result": -26, "unit": "kcal/mol"}
    ]}
  ]
}
